Laboratory results: PubChem BioAssay AID504761 (Drosophila RNAi Screening Center, 2011)

Assay: 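Insect host genes that dengue virus relies on to spread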 (primary screen)
System: D.Mel-2 cells from Drosophila
Knock-down reagent: long dsRNA against Drosophila genes
Conditions: infection with dengue virus type 2; dose and infection time not stated
Read-out: 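Per well on two replicate plates, imaging gave the percent of cells positive for viral envelope protein, ranked by infection, and a nuclear count of cells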
Scale: infection score: higher = more virus-infected cells; cell count: higher = more cells in the well
Hit rule: 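Low infection ranks in the two replicates (chance level up to 0.065) followed by a retest with a 1.5-fold or larger significant decrease, p below 0.05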
Meaning of the calls: active = confirmed: knock-down lowers infection; inactive = not picked or not confirmed
The screen tested about 22,000 reagents; below is an unselected part of those that have a named target and a result. Over the whole deposit, 116 (0.52%) were called active. 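Calls depend on retest data that are not deposited; infection was ranked per plate without normalising between plates; the unit of the infection score is not given.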 Raw values vary from plate to plate and are shown uncorrected. Unmarked entries are inactive. A plus sign joins genes that one reagent is predicted to hit. Not stated in the record: the amount of reagent, the time to read-out.

| infection score, replicate 1 | infection score, replicate 2 | cell count, replicate 1 | cell count, replicate 2 | gene | DRSC id |
| --- | --- | --- | --- | --- | --- |
| 19 | 12 | 5462 | 5593 | Cyp6a9 | DRSC07385 |
| 3.78 | 6.28 | 6319 | 6654 | CG34417 | DRSC18332 |
| 2.62 | 3.53 | 6029 | 6734 | CG34417 | DRSC18333 |
| – | – | 378 | 396 | CG34417 | DRSC28478 |
| 19.4 | 5.91 | 6567 | 6175 | CG12519 | DRSC29810 |
| 3.1 | 6.63 | 6350 | 6422 | Mst57Db | DRSC21551 |
| 7.93 | 2.58 | 6872 | 7091 | CG16894 | DRSC06634 |
| 15.4 | 11.4 | 1103 | 6829 | CG16894 | DRSC21785 |
| 3.17 | 1.16 | 6906 | 7173 | GABPI | DRSC00494 |
| 2.53 | 5.49 | 6920 | 6826 | GABPI | DRSC27495 |
| 33.5 | 18.5 | 5956 | 5844 | Cc2d2a | DRSC06750 |
| 0.59 | 1.45 | 6278 | 6151 | CG34148 + P5CDh2 | DRSC13519 |
| 5.75 | 6.98 | 7014 | 6416 | CG4669 | DRSC10440 |
| 4.81 | 26.9 | 499 | 1827 | cyr | DRSC18017 |
| 5.35 | 9.43 | 5834 | 5067 | cyr | DRSC18018 |
| 7.28 | 7.78 | 6694 | 6337 | Cyp12c1 | DRSC11125 |
| 3.29 | 2.14 | 5865 | 6130 | Cyp12c1 | DRSC24262 |
| 2.47 | – | 6394 | 316 | CG5521 | DRSC15828 |
| 1.88 | 6.55 | 6797 | 5706 | CG5521 | DRSC30087 |
| – | 2.67 | 595 | 6741 | La | DRSC03358 |
| 7.97 | 8.77 | 6310 | 6339 | CG4000 | DRSC15535 |
| 1.35 | 3.32 | 5937 | 6204 | CG4000 | DRSC21547 |
| 3.74 | 1.62 | 6713 | 6287 | CG4000 | DRSC25094 |
| 9.74 | 2.24 | 2660 | 5926 | CG3857 | DRSC18542 |
| 7.07 | 12.1 | 3253 | 3782 | Uba1 | DRSC07567 |
| 24.3 | 16.7 | 2794 | 3056 | Uba1 | DRSC28350 |
| 2.29 | 5.72 | 6711 | 7010 | CG13700 | DRSC10049 |
| 34.5 | 22.2 | 3463 | 6242 | CG13700 | DRSC29871 |
| 3.54 | 1.63 | 6179 | 6439 | Corp | DRSC17771 |
| 1.87 | 11 | 5978 | 6180 | Corp | DRSC24622 |
| 32.8 | 20.7 | 4081 | 4900 | Gpb5 | DRSC21241 |
| 2.11 | 2.56 | 6169 | 6413 | mof | DRSC18795 |
| 4.36 | 3.25 | 7137 | 6379 | mof | DRSC24125 |
| – | – | 306 | 232 | Pos | DRSC15415 |
| 0.22 | 0.47 | 6335 | 6154 | Tcs6 + PIG-P | DRSC13742 |
| 16.2 | – | 6177 | 248 | Tcs6 + PIG-P | DRSC14893 |
| 2.66 | 3.67 | 5913 | 6238 | alpha4GT2 | DRSC15905 |
| 2.5 | 1.32 | 6773 | 6741 | CG12106 | DRSC17805 |
| 6.37 | 4.74 | 6275 | 6417 | Had1 | DRSC20216 |
| 9.87 | 14.2 | 5878 | 5954 | CG8944 | DRSC20128 |
| 4.36 | 11.4 | 5533 | 1129 | CG8944 | DRSC21342 |
| 30.7 | 4.33 | 6197 | 6598 | CG8944 | DRSC23741 |
| – | 7.07 | 354 | 4781 | CG4641 (retired record) | DRSC10439 |
| 1.38 | 3.14 | 6095 | 5961 | CG4641 (retired record) | DRSC24444 |
| 16.1 | 16.6 | 5847 | 5922 | Vajk3 | DRSC01883 |
| 0.86 | 5.66 | 5841 | 6079 | Vajk3 | DRSC25405 |
| 0.55 | 1.37 | 6227 | 5907 | CG32284 | DRSC08025 |
| 5.43 | 26.9 | 6809 | 6391 | CG13228 | DRSC06348 |
| 7.43 | 9.89 | 5973 | 5975 | CG13228 | DRSC27946 |
| 5.33 | 3.61 | 6563 | 7058 | Mdh2 (retired record) | DRSC16361 |
| 16.4 | 10.1 | 6582 | 5885 | CG10132 | DRSC02013 |
| 17 | 7.25 | 6176 | 6497 | CG10132 | DRSC27890 |
| 2.98 | 2.89 | 6038 | 5787 | GluRIB + CG42509 (retired record) | DRSC10258 |
| 1.43 | 0.96 | 6381 | 6164 | GluRIB + CG42509 (retired record) | DRSC11177 |
| 3.63 | 4.15 | 6254 | 6222 | GluRIB + CG42509 (retired record) | DRSC25464 |
| 1.41 | 1.79 | 6309 | 6493 | CG13928 | DRSC08397 |
| 2.49 | 12.2 | 1203 | 3078 | Hmgcl | DRSC02051 |
| 0.95 | 0.29 | 6445 | 6501 | CG13869 + CG11099 | DRSC06428 |
| 6.75 | 6.16 | 6389 | 6231 | CG13869 + CG11099 | DRSC24218 |
| 14 | 9.21 | 3228 | 3704 | Sumo | DRSC03611 |
| 8.6 | 6.37 | 6012 | 6902 | VhaAC39-2 | DRSC15609 |
| 4.76 | 4.33 | 6908 | 6795 | CG9981 | DRSC20225 |
| 2.25 | 0.5 | 6316 | 6547 | Cog3 | DRSC00585 |
| 15.3 | 9.84 | 6521 | 6363 | gce | DRSC19613 |
| 17.9 | 17.1 | 4430 | 5373 | gce | DRSC19974 |
| 1.58 | 2.04 | 6155 | 5728 | gce | DRSC23808 |
| 5 | 2.53 | 5855 | 6078 | gce | DRSC25266 |
| 5.13 | 2.87 | 6185 | 6406 | SMC6 | DRSC15829 |
| 6.23 | 11.3 | 6134 | 6528 | SMC6 | DRSC25997 |
| 18 | 17 | 6601 | 6322 | Fam92 | DRSC02952 |
| 21.2 | 0.34 | 3784 | 296 | Fam92 | DRSC29237 |
| 2.72 | 8.89 | 5956 | 6195 | CG10068 | DRSC12508 |
| 4.2 | 5.16 | 7220 | 6843 | Mtap | DRSC06890 |
| 1.22 | 1.66 | 5884 | 6154 | Ir67b | DRSC09876 |

4 successive reagents already listed:
| infection score, replicate 1 | infection score, replicate 2 | cell count, replicate 1 | cell count, replicate 2 | gene | DRSC id |
| --- | --- | --- | --- | --- | --- |
| 5.75 | 6.98 | 7014 | 6416 | CG4669 | DRSC10440 |
| 4.81 | 26.9 | 499 | 1827 | cyr | DRSC18017 |
| 5.35 | 9.43 | 5834 | 5067 | cyr | DRSC18018 |
| 7.28 | 7.78 | 6694 | 6337 | Cyp12c1 | DRSC11125 |
